Experimental data reported in ChEMBL document CHEMBL1157805, “Virtual screening, selection and development of a benzindolone structural scaffold for inhibition of lumazine synthase” (Bioorg Med Chem, 2010).

Substrate: O=C1Nc2ccc(S(=O)(=O)NCCCCC(F)(F)P(=O)(O)O)c3cccc1c23
Test: Activity at Mycobacterium tuberculosis recombinant lumazine synthase after 30 mins by fluorescence assay
In short: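 Recombinant M. tuberculosis lumazine synthase (2 μM) in 100 mM Tris-HCl pH 7.0, 100 mM NaCl, 5 mM DTT, 2% DMSO. Dihydroxybutanone phosphate was fixed at 100 μM, pyrimidinedione substrate varied 3–100 μM, and inhibitor 0–200 μM. Reactions were started with the pyrimidinedione substrate. Lumazine formation was read at 408 nm for 30 min at 27 °C. Velocity–substrate data were fitted by nonlinear regression to alternative inhibition models.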

B1: 6,7-dimethyl-8-ribityllumazine synthase (Mycobacterium tuberculosis), P9WHE9 (protein)
chain: MKGGAGVPDLPSLDASGVRLAIVASSWHGKICDALLDGARKVAAGCGLDDPTVVRVLGAIEIPVVAQELARNHDAVVALGVVIRGQTPHFDYVCDAVTQGLTRVSLDSSTPIANGVLTTNTEEQALDRAGLPTSAEDKGAQATVAALATALTLRELRAHS
With B1 the kcat was 0.0095 s⁻¹.
